In patent publication US20140179594A1, “STREPTOCOCCUS BACTERIOPHAGE LYSINS FOR TREATMENT OF GRAM POSITIVE BACTERIA IN COMPANION ANIMALS AND LIVESTOCK” (priority 2011, published 2014):

System: S. suis strain 7997
Assay: PlySs2 biochemical characterization, OD600 turbidity
Details: very low concentrations of EDTA, 15 mM Na3PO4 pH 8.0

B1: PlySs2: S. suis prophage lysin from strain 89/1591, amino acid sequence SEQ ID NO:3 (protein, listed as Streptococcus suis)
chain: MTTVNEALNNVRAQVGSGVSVGNGECYALASWYERMISPDATVGLGAGVGWVSGAIGDTISAKNIGSSYNWQANGWTVSTSGPFKAGQIVTLGATPGNPYGHVVIVEAVDGDRLTILEQNYGGKRYPVRNYYSAASYRQQVVHYITPPGTVAQSAPNLAGSRSYRETGTMTVTVDALNVRRAPNTSGEIVAVYKRGESFDYDTVIIDVNGYVWVSYIGGSGKRNYVATGATKDGKRFGNAWGTFK
effect of EDTA on activity: diminish PlySs2 activity
